Molecules are shown by their SMILES. The list shows a part of the results. Measured potencies and affinities stand elsewhere. Some salts and complexes are drawn in separate pieces, as the source files them; their charges need not balance. Calls of active or inactive are those of the source. Cut-off read from the data, not from the text of the source: inconclusive = inhibition above about 27% without an active follow-up result; inactive = below that.

The experiment in a line: NS1A inhibition, H1N1 influenza, cell based functional assay (AID 504329). The note with it: percent inhibition, at 12.5 µM, stronger effect = higher value.
Regarding `COc1ccc(OP(C)(=O)Nc2ccccn2)cc1` (stereo not given), the inhibition (as a rule, the relative decrease from the control value, in per cent) was inactive: -0.34%.

Consider `CN(C)CCOC(=O)C(O)(c1ccccc1)C1CCCC1` (stereo not given), for which the inhibition is inactive: -18.3%.

For the compound `COc1ccccc1OP(C)(=O)Nc1ccc(Br)cc1` (stereo not given), the inhibition is inactive: 2.53%.

With `COc1ccccc1OP(C)(=O)Nc1ccc(C)cc1C` (stereo not given), the inhibition is inactive: -1.52%.

Consider `CP(=O)(Nc1ccccn1)Oc1ccccc1` (stereo not given), for which the inhibition is inactive: 9.14%.

`CCc1ccc(OP(C)(=O)O)cc1`: the inhibition is inactive: 2.77%.

Consider `Cc1c(NP(C)(=O)Oc2ccc(C(C)C)cc2)c(=O)n(-c2ccccc2)n1C` (stereo not given), for which the inhibition is inactive: 2.16%.

On to `O=[N+]([O-])c1cc([N+](=O)[O-])c(Nc2ccccn2)c([N+](=O)[O-])c1`, for which the inhibition is inactive: 3.23%.

Take `COc1ccccc1OP(C)(=O)Nc1ccc(C)c(C)c1` (stereo not given): the inhibition is inactive: -2.72%.

Consider `COc1ccc(OP(C)(=O)Nc2ccccc2Br)cc1` (stereo not given), for which the inhibition is inactive: -6.76%.

Consider `Cc1cc(C)cc(OP(C)(=O)Nc2cccc(C(F)(F)F)c2)c1` (stereo not given), for which the inhibition was inactive: 1.79%.

On to `O=C1C(O)=C([N+](=O)[O-])C(=O)C(O)=C1[N+](=O)[O-]`, for which the inhibition is inactive: -25.1%.

For the compound `CP(=O)(Nc1ccc(Cl)cc1Cl)Oc1ccccc1` (stereo not given), the inhibition is inactive: -4.4%.

For the compound `CCCCCCCCCCCCCCCC1C[N+](C)(C)CCOP(C)(=O)O1` (stereo not given), the inhibition was inactive: 2.53%.

With `CP(=O)(OCCOc1ccccc1)OCCOc1ccccc1`, the inhibition was inactive: 2.73%.

Turning to `CCOC(=O)c1ccc(NP(C)(=O)Oc2ccc(Cl)cc2)cc1` (stereo not given), the inhibition was inactive: -4.4%.

For the compound `CP(=O)(OC12CC3CC(CC(C3)C1)C2)OC12CC3CC(CC(C3)C1)C2`, the inhibition is inactive: 0.94%.

With `O=C(OCCCN1CCCC1)C(O)(c1ccccc1)C1CCCCC1` (stereo not given), the inhibition is inactive: 0.27%.

For `COc1ccccc1OP(C)(=O)Nc1c(C)n(C)n(-c2ccccc2)c1=O` (stereo not given), the inhibition is inactive: -0.55%.

For the compound `CCc1ccc(OP(C)(=O)Nc2cccnc2)cc1` (stereo not given), the inhibition was inactive: 3.56%.

In the case of `CP(=O)(Oc1ccccc1)N1CCOC1=O` (stereo not given), the inhibition is inactive: 0.35%.

Turning to `COc1ccc(OP(C)(=O)Nc2ccc(Br)cc2)cc1` (stereo not given), the inhibition is inactive: 0.57%.

On to `CCN(CC)CC(O)COC(=O)C(O)(c1ccccc1)C1CCCCC1` (stereo not given), for which the inhibition was inactive: 6.08%.

For `CN(C)C(=O)c1c([N+](=O)[O-])cc([N+](=O)[O-])cc1[N+](=O)[O-]`, the inhibition was inactive: -4.87%.

Regarding `COc1ccccc1OP(C)(=O)Nc1ccccc1Br` (stereo not given), the inhibition is inactive: -2.35%.

Take `CC(C)(C)c1ccc(OP(C)(=O)O)cc1`: the inhibition is inactive: 0.47%.

Consider `CP(=O)(Nc1ccc(Cl)cc1)Oc1ccc(F)cc1` (stereo not given), for which the inhibition is inactive: -0.21%.

`CCOP(C)(=S)SCC(=O)NC(C)(CC)C(=O)O` (stereo not given): the inhibition was inactive: 4.43%.

With `CP(=O)(Nc1ccc(SC(F)(F)F)cc1)Oc1ccc(F)cc1` (stereo not given), the inhibition is inactive: -3.01%.

For `Cc1ccccc1NP(C)(=O)Nc1ccccc1C`, the inhibition is inactive: -3%.

Turning to `CP(=O)(Nc1ccc2c(c1)OCCO2)Oc1ccccc1` (stereo not given), the inhibition is inactive: -13.2%.

Regarding `CN(C)CCOC(=O)C(O)(c1ccccc1)C1CCCCC1` (stereo not given), the inhibition is inactive: 8.01%.

As for `COc1ccc(NP(C)(=O)Oc2ccccc2OC)cc1` (stereo not given), the inhibition is inactive: -1.82%.

Regarding `COc1ccc(OP(C)(=O)Nc2cccc(Br)c2)cc1` (stereo not given), the inhibition was inactive: -0.53%.

Regarding `Cc1c(C(c2ccc3c(c2)OCO3)c2c(C)n(C)n(-c3ccccc3)c2=O)c(=O)n(-c2ccccc2)n1C.O=[N+]([O-])c1cc([N+](=O)[O-])c(O)c([N+](=O)[O-])c1`, the inhibition is inactive: 18.8%.

As to `O=[N+]([O-])c1ccc(OP2(=O)COCCO2)cc1` (stereo not given), the inhibition was inactive: -6.47%.

For `O=[N+]([O-])c1cc([N+](=O)[O-])c(NCC2CCS(=O)(=O)C2)c([N+](=O)[O-])c1` (stereo not given), the inhibition was inactive: 2.36%.

Consider `Cc1cc(-c2cccc3ccccc23)c(C)cn1.O=[N+]([O-])c1cc([N+](=O)[O-])c(O)c([N+](=O)[O-])c1`, for which the inhibition is inactive: 12%.

As for `CCOC(=O)c1ccc(NP(C)(=O)Oc2ccc(F)cc2)cc1` (stereo not given), the inhibition is inactive: -6.28%.

`COc1ccc(OP(C)(=O)Nc2ccc(SC(F)(F)F)cc2)cc1` (stereo not given): the inhibition was inactive: -6.8%.

As to `CP(=O)(Nc1ccccc1)Oc1ccc(F)cc1` (stereo not given), the inhibition is inactive: -1.5%.

As to `O=[N+]([O-])c1cc([N+](=O)[O-])c(OC2CCCCC2O)c([N+](=O)[O-])c1` (stereo not given), the inhibition was inactive: -1.8%.

With `CCCCCOc1ccc(NP(C)(=O)Oc2ccc(Cl)cc2Cl)cc1` (stereo not given), the inhibition is inactive: -15.4%.

Consider `Cc1c([N+](=O)[O-])cc([N+](=O)[O-])c(Br)c1[N+](=O)[O-]`, for which the inhibition is inactive: 5.81%.

As for `CCN(CC)CCCOC(=O)C(O)(c1ccccc1)C1CCCCC1` (stereo not given), the inhibition is inactive: 7.18%.

With `CP(=O)(Nc1ccccc1F)Oc1ccccc1` (stereo not given), the inhibition was inactive: -2.34%.

For the compound `CC(C)c1ccc(OP(C)(=O)Nc2ccc(SC(F)(F)F)cc2)cc1` (stereo not given), the inhibition was inactive: -8.48%.

For `COc1ccc2c(c1O)-c1c(O)c(OC)cc3c1[C@H](C2)[N+](C)(C)CC3.O=[N+]([O-])c1cc([N+](=O)[O-])c([O-])c([N+](=O)[O-])c1[O-]`, the inhibition is inactive: 0.28%.

In the case of `O=C(OC1CN2CCC1CC2)c1ccc([N+](=O)[O-])cc1` (stereo not given), the inhibition is inactive: 14.5%.

For the compound `O=C(OCCN1CCN(CCOCc2ccccc2)CC1)C(O)(c1ccccc1)c1ccccc1`, the inhibition is inactive: 22.9%.

With `CCOC(=O)c1ccc(NP(C)(=O)Oc2cc(C)cc(C)c2)cc1` (stereo not given), the inhibition is inactive: 0.86%.

Regarding `Cc1cc(C)cc(OP(C)(=O)Nc2ccc(C)cc2C)c1` (stereo not given), the inhibition is inactive: -3.93%.

`COc1ccccc1OP(C)(=O)Nc1cccc(Br)c1` (stereo not given): the inhibition was inactive: -13%.

As to `Cc1ccc(C)c(NP(C)(=O)Oc2ccccc2)c1` (stereo not given), the inhibition was inactive: 4.55%.

For the compound `Cc1cc(C)cc(OP(C)(=O)Nc2ccccn2)c1` (stereo not given), the inhibition is inactive: -3.4%.

In the case of `CP(=O)(Nc1cccc(Br)c1)Oc1ccccc1` (stereo not given), the inhibition is inactive: -1.85%.

Turning to `O=C(O)c1cccc(Nc2c([N+](=O)[O-])cc([N+](=O)[O-])cc2[N+](=O)[O-])c1`, the inhibition is inactive: 6.29%.

For `CC1=NCCc2c1[nH]c1ccccc21.O=[N+]([O-])c1cc([N+](=O)[O-])c(O)c([N+](=O)[O-])c1`, the inhibition was inactive: 8.47%.

Turning to `CCOC(=O)C(CC)C1=NC(C)(C)Cc2ccccc21.O=[N+]([O-])c1cc([N+](=O)[O-])c(O)c([N+](=O)[O-])c1` (stereo not given), the inhibition is inactive: -12.2%.

Turning to `CC1=C2N=C(C=C3N=C(C(C)=C4[N-][C@@](C)([C@@H]5N=C1[C@](C)(CCC(=O)NC[C@@H](C)OP(=O)([O-])O[C@H]1[C@@H](O)[C@@H](n6cnc7cc(C)c(C)cc76)O[C@@H]1CO)[C@H]5CC(N)=O)[C@@](C)(CC(N)=O)[C@@H]4CCC(N)=O)[C@@](C)(CC(N)=O)[C@@H]3CCC(N)=O)C(C)(C)[C@@H]2CCC(N)=O.[C-]#N.[Co+3]`, the inhibition was inactive: 6.38%.

Consider `O=[N+]([O-])c1cc([N+](=O)[O-])c(Nc2nnnn2CCO)c([N+](=O)[O-])c1`, for which the inhibition was inactive: -12.3%.

Turning to `CCCOc1ccc(NP(C)(=O)Oc2ccc(Cl)cc2)cc1` (stereo not given), the inhibition is inactive: 1.23%.

Consider `CP(=O)(Nc1ccc(SC(F)(F)F)cc1)Oc1ccccc1` (stereo not given), for which the inhibition is inactive: -5.12%.

`CN1CCCCC1COC(=O)C1(O)c2ccccc2CCc2ccccc21` (stereo not given): the inhibition is inactive: -13.3%.

Regarding `COc1ccccc1OP(C)(=O)Nc1c(C)cccc1C` (stereo not given), the inhibition is inactive: 6.53%.

Consider `O=[N+]([O-])c1cc([N+](=O)[O-])c(-n2nnc3ccccc32)c([N+](=O)[O-])c1`, for which the inhibition was inactive: -4.77%.

Consider `Cc1nc2ccc3ccccc3c2s1.O=[N+]([O-])c1cc([N+](=O)[O-])c(O)c([N+](=O)[O-])c1`, for which the inhibition was inactive: -4.56%.

For `O=[N+]([O-])c1cc([N+](=O)[O-])c(-c2cnn(-c3ccccc3)c2)c([N+](=O)[O-])c1`, the inhibition was inactive: -5.77%.

`Cc1cc(C)cc(OP(C)(=O)Nc2ccc(SC(F)(F)F)cc2)c1` (stereo not given): the inhibition was inactive: 18%.

On to `CP(=O)(NC(=O)Nc1ccccc1)Oc1ccccc1` (stereo not given), for which the inhibition was inactive: 4.8%.

Consider `CCc1ccc(OP(C)(=O)N2CCN(c3ccc([N+](=O)[O-])cc3)CC2)cc1` (stereo not given), for which the inhibition is inactive: 0.75%.

Consider `CP(=O)(Oc1ccccc1)OC(c1ccccc1)C(F)(F)F` (stereo not given), for which the inhibition was inactive: -7.78%.

`Cc1cccc(C)c1OP(C)(=O)Nc1ccc(SC(F)(F)F)cc1` (stereo not given): the inhibition was inactive: -1.31%.

Take `CP(=O)(Nc1ccccn1)Oc1ccc(Cl)cc1` (stereo not given): the inhibition was inactive: -5.73%.

In the case of `CCOC(=O)c1ccc(NP(C)(=O)Oc2ccc(OC)cc2)cc1` (stereo not given), the inhibition was inactive: -7.67%.

In the case of `CCOP(C)(=S)SCC(=O)NC(C)C(=O)O` (stereo not given), the inhibition is inactive: -2.16%.

Regarding `CP(=O)(Nc1ccccc1Br)Oc1ccccc1` (stereo not given), the inhibition was inactive: -7.46%.

For `COc1ccccc1OP(C)(=O)Nc1ccccc1` (stereo not given), the inhibition was inactive: -0.43%.

With `CP(=S)(Nn1cnnc1)Oc1ccccc1` (stereo not given), the inhibition was inactive: -11.5%.

Turning to `O=[N+]([O-])c1ccc2c(c1)C=Nc1ccccc1O2`, the inhibition was inactive: 7.38%.

With `Cc1cccc(C)c1OP(C)(N)=O` (stereo not given), the inhibition is inactive: 1.89%.

As for `CC(C)(C)c1ccc(OP(C)(=O)Nc2ccc(SC(F)(F)F)cc2)cc1` (stereo not given), the inhibition was inactive: 2.06%.

For the compound `O=[N+]([O-])c1cc([N+](=O)[O-])c(Nc2cccnc2)c([N+](=O)[O-])c1`, the inhibition was inactive: 9.67%.

Consider `Cc1cc(C)cc(OP(C)(N)=O)c1` (stereo not given), for which the inhibition is inactive: 10.9%.

As for `COc1ccc(OP(C)(=O)Nc2cccc(F)c2)cc1` (stereo not given), the inhibition is inactive: -0.57%.

As to `COc1ccccc1OP(C)(=O)Nc1cc(Cl)ccc1C` (stereo not given), the inhibition is inactive: -2.7%.

As for `Cc1ccc(NP(C)(=O)Oc2ccccc2)c(C)c1` (stereo not given), the inhibition was inactive: -4.44%.

Regarding `COc1ccccc1OP(C)(=O)Nc1ccc(C)cc1` (stereo not given), the inhibition is inactive: 7.91%.

As to `CCOC(=O)c1ccc(NP(C)(=O)Oc2ccccc2)cc1` (stereo not given), the inhibition was inactive: 3.87%.

Turning to `CCN(CC)CCCOC(=O)C(O)(c1ccccc1)c1ccccc1`, the inhibition is inactive: 0.123%.
